Patent publication US10017459B2, “β-substituted β-amino acids and analogs as chemotherapeutic agents and uses thereof” (Quadriga Biosciences, Inc., priority 2015, dated 2018)

Tests used:
[1] = system: LLCPK cells conditionally expressing hLAT1; assay: LAT1-specific in vitro cytotoxicity, modified clonigenic assay; settings: 3 μM, 30 min
U251 = assay: In vitro cytotoxicity, U251; assay type: cell-based; settings: read-out: IC50 (in vitro toxicity); U251, Glioblastoma; 30 min treatment, 72 hours growth, CellTiter-Glo
L363 = assay: In vitro cytotoxicity, L363; assay type: cell-based; settings: read-out: IC50 (in vitro toxicity); L363, Multiple Myeloma; 30 min treatment, 72 hours growth
LN229 = assay: In vitro cytotoxicity, LN229; assay type: cell-based; settings: read-out: IC50 (in vitro toxicity); LN229, Glioblastoma; 30 min treatment, 72 hours growth
42MGBA = assay: In vitro cytotoxicity, 42MGBA; assay type: cell-based; settings: read-out: IC50 (in vitro toxicity), Glioblastoma, 30 min treatment, 72 hours growth
PC3 = assay: In vitro cytotoxicity, PC3; assay type: cell-based; settings: read-out: IC50 (in vitro toxicity); PC3, Prostate Cancer; 30 min treatment, 72 hours growth
G55 = assay: In vitro cytotoxicity, G55; assay type: cell-based; settings: read-out: IC50 (in vitro toxicity); G55, Glioblastoma; 30 min treatment, 72 hours growth
HS5 = assay: In vitro cytotoxicity, HS5; assay type: cell-based; settings: read-out: IC50 (in vitro toxicity); HS5, Multiple Myeloma; 30 min treatment, 72 hours growth
RPMI8266 = assay: In vitro cytotoxicity, RPMI8266; assay type: cell-based; settings: read-out: IC50 (in vitro toxicity); RPMI8266, Multiple Myeloma; 30 min treatment, 72 hours growth
[2] = system: Human prostate cancer PC3 cells; assay: Prostate cancer xenograft study, IV dosing; settings: 2.5 mg/kg or 10 mg/kg IV once a week for 4 weeks
MDA-MB-231 = assay: In vitro cytotoxicity, MDA-MB-231; assay type: cell-based; settings: read-out: IC50 (in vitro toxicity); MDA-MB-231, Breast Cancer; 30 min treatment, 72 hours growth

Cc1cc(N(CCCl)CCCl)ccc1C(N)CC(=O)O (stereo not shown)
percent surviving cells in cells expressing LAT1 versus cells not expressing LAT1 (in words) [1]: about the same

N[C@H](CC(=O)O)Cc1ccc(N(CCCl)CCCl)cc1
IC50 (U251): < 100 µM | IC50 (L363): > 100 µM | IC50 (LN229): < 100 µM | IC50 (42MGBA): < 100 µM | IC50 (PC3): < 100 µM | IC50 (G55): < 100 µM

N[C@H](CC(=O)O)Cc1ccccc1N(CCCl)CCCl
IC50 (U251): < 100 µM | IC50 (L363): > 100 µM | IC50 (HS5): > 100 µM | IC50 (LN229): < 100 µM | IC50 (RPMI8266): > 100 µM | body weight [2]: maintained weight | myelosuppression [2]: not dectected | tumor growth suppression ([2]; nude mice): dose-dependent tumor growth suppression | IC50 (42MGBA): < 100 µM | IC50 (PC3): < 100 µM | IC50 (G55): < 100 µM | IC50 (MDA-MB-231): < 100 µM
